Assay results reported in PMC9376891, “Structural basis for Sarbecovirus ORF6 mediated blockage of nucleocytoplasmic transport” (Nature Communications, 2022).

Sequences of proteins named here, by UniProt entry; tags and fusion partners are left off. Residues count along the entry.
UniProt P52948, 157-213 partner limits assumed: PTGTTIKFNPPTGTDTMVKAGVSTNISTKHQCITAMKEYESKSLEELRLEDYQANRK
UniProt P78406, 31-368 limits assumed: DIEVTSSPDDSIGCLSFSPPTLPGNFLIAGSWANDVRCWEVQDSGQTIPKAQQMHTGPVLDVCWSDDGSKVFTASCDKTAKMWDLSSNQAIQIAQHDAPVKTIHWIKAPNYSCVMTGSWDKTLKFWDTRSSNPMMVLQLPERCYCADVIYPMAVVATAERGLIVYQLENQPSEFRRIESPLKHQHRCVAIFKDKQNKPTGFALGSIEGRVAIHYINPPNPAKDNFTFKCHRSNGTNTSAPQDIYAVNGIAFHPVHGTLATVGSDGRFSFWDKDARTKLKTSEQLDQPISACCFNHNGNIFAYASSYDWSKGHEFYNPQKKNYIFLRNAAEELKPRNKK

Target: Rae1_31-368-Nup98_157-213 heterodimer (Rae1-Nup98 complex) (Homo sapiens, UniProt P52948+P78406)
Assay: Isothermal titration calorimetry (ITC) of peptides with Rae1-Nup98
Assay type: binding
Conditions: 25 °C, 20 mM Tris-HCl pH 8.0, 100 mM NaCl, peptide 0.5-1 mM titrated into 0.03 mM protein, single-site model

Question: Which Kd does the source give for `CC[C@H](C)[C@H](NC(=O)[C@H](CCC(=O)O)NC(=O)[C@H](CCSC)NC(=O)[C@@H]1CCCN1C(=O)[C@H](C)NC(=O)[C@H](CCC(=O)O)NC(=O)[C@H](CCC(=O)O)NC(=O)[C@H](CC(=O)O)NC(=O)[C@H](CC(C)C)NC(=O)[C@H](CCC(N)=O)NC(=O)[C@H](CO)NC(=O)[C@@H](N)Cc1ccc(O)cc1)C(=O)N[C@@H](CC(=O)O)C(=O)O` here?
Answer: 420 nM

Question: Which Kd does the source give for `CC[C@H](C)[C@H](NC(=O)[C@H](C)NC(=O)[C@H](CCSC)NC(=O)[C@@H]1CCCN1C(=O)[C@H](CCC(N)=O)NC(=O)[C@H](CCC(=O)O)NC(=O)[C@H](CCC(=O)O)NC(=O)[C@H](CC(=O)O)NC(=O)[C@H](CC(C)C)NC(=O)[C@H](CCC(N)=O)NC(=O)[C@H](CO)NC(=O)[C@@H](N)Cc1ccc(O)cc1)C(=O)N[C@@H](CC(=O)O)C(=O)O` here?
Answer: 1650 nM

Question: For `CSCC[C@H](NC(=O)[C@@H]1CCCN1C(=O)[C@H](CCC(N)=O)NC(=O)[C@H](CCC(=O)O)NC(=O)[C@H](CCC(=O)O)NC(=O)[C@H](CC(=O)O)NC(=O)[C@H](CC(C)C)NC(=O)[C@H](CCC(N)=O)NC(=O)[C@H](CO)NC(=O)[C@@H](N)Cc1ccc(O)cc1)C(=O)N[C@@H](CCC(=O)O)C(=O)N[C@@H](C)C(=O)N[C@@H](CC(=O)O)C(=O)O`, which Kd is on record?
Answer: 4200 nM

Question: `CC[C@H](C)[C@H](NC(=O)[C@H](CCC(=O)O)NC(=O)[C@H](CCSC)NC(=O)[C@H](C)NC(=O)[C@H](CCC(N)=O)NC(=O)[C@H](CCC(=O)O)NC(=O)[C@H](CCC(=O)O)NC(=O)[C@H](CC(=O)O)NC(=O)[C@H](CC(C)C)NC(=O)[C@H](CCC(N)=O)NC(=O)[C@H](CO)NC(=O)[C@@H](N)Cc1ccc(O)cc1)C(=O)N[C@@H](CC(=O)O)C(=O)O` was tested. Which Kd did it give?
Answer: 890 nM

Question: Which Kd does the source give for `CC[C@H](C)[C@H](NC(=O)[C@H](CCC(=O)O)NC(=O)[C@H](CC(C)C)NC(=O)[C@@H]1CCCN1C(=O)[C@H](CCC(N)=O)NC(=O)[C@H](CCC(=O)O)NC(=O)[C@H](CCC(=O)O)NC(=O)[C@H](CC(=O)O)NC(=O)[C@H](CC(C)C)NC(=O)[C@H](CCC(N)=O)NC(=O)[C@H](CO)NC(=O)[C@@H](N)Cc1ccc(O)cc1)C(=O)N[C@@H](CC(=O)O)C(=O)O` here?
Answer: 10400 nM

Question: For `CC[C@H](C)[C@H](NC(=O)[C@H](CCC(=O)O)NC(=O)[C@H](CCSC)NC(=O)[C@@H]1CCCN1C(=O)[C@H](CCC(N)=O)NC(=O)[C@H](CCC(=O)O)NC(=O)[C@H](CCC(=O)O)NC(=O)[C@H](CC(=O)O)NC(=O)[C@H](CC(C)C)NC(=O)[C@H](CCC(N)=O)NC(=O)[C@H](CO)NC(=O)[C@@H](N)Cc1ccc(O)cc1)C(=O)N[C@@H](C)C(=O)O`, which Kd is on record?
Answer: 2770 nM
